Reference: article PMC10575921 (Nature Communications, 2023)

System: six mutated 3CL^pros (G15S, T21I, L89F, K90R, P132H, and L205V)
Test: FRET-based 3CLpro enzymatic inhibition assay, six mutants as a group
Conditions: range over G15S

CC(C)(C)[C@H](NC(=O)C(F)(F)F)C(=O)N1CC2(C[C@H]1C(=O)N[C@H](C#N)C[C@@H]1CCNC1=O)SCCS2 [compound 9, simnotrelvir]
IC50: 8 to 13 nM
